Tests used:
[1] = molecular target: Nicotinic acetylcholine receptor alpha6/alpha3/beta4 (Rattus norvegicus, UniProt P04757+P12392+P43143); test: Antagonist activity at rat alpha6/alpha3beta4 nACHR expressed in xenopous laevis oocyte assessed as inhibition of ACh induced channel current after 5 mins at -70 mV holding potential by two electrode voltage clamp method
[2] = molecular target: Neuronal acetylcholine receptor; alpha3/beta4 (Rattus norvegicus, UniProt P04757+P12392); test: Antagonist activity at rat alpha3beta4 nACHR expressed in xenopous laevis oocyte assessed as inhibition of ACh induced channel current after 5 mins at -70 mV holding potential by two electrode voltage clamp method

By UniProt entry, the sequences of proteins in these tests, tags left out. Residues count along the entry.
UniProt P04757, 26-499 limits assumed: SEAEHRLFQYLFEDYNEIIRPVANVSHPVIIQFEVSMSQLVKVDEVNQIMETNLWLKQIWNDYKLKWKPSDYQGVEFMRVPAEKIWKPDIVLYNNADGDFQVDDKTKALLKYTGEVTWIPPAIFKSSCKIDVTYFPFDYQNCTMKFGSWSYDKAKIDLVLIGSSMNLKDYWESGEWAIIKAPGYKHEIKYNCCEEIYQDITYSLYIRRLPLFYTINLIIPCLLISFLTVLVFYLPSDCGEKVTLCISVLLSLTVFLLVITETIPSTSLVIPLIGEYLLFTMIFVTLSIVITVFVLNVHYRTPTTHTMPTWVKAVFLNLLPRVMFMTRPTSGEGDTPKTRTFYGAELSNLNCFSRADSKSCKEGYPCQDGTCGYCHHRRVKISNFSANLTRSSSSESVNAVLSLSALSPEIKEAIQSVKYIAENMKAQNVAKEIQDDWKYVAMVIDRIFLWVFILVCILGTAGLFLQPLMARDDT
UniProt P12392, 21-495 limits assumed: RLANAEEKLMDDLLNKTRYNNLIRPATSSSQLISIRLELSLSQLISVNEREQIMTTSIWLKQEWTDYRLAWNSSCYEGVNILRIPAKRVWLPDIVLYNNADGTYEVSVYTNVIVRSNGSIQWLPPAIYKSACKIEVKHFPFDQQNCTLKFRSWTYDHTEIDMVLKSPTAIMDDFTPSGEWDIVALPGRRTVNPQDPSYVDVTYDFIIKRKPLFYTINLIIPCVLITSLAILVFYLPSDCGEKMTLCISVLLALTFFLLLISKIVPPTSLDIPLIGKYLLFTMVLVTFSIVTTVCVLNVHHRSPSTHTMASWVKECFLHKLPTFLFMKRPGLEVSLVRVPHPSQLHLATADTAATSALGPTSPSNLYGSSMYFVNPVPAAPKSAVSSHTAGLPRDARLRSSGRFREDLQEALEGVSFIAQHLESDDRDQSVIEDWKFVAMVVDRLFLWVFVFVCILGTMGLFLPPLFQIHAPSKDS
UniProt P43143, 31-493 limits assumed: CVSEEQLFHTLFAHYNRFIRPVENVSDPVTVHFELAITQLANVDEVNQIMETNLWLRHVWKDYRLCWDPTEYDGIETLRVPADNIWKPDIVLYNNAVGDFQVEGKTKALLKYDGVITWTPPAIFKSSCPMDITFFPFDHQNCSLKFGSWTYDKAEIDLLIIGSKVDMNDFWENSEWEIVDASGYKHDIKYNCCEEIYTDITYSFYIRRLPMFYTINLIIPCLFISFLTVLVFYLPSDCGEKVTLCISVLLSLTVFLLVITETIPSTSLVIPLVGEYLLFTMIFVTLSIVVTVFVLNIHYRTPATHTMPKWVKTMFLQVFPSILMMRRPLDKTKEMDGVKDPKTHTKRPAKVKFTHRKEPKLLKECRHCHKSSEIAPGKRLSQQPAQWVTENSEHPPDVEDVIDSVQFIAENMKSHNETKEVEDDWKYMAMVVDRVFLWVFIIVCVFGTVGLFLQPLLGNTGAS

Structure (SMILES): CC[C@H](C)[C@@H]1NC(=O)[C@@H]2CCCN2C(=O)[C@H](CO)NC(=O)[C@H](C)NC(=O)[C@H](C)NC(=O)[C@H](CO)NC(=O)[C@@H]2CSSC[C@H](NC(=O)CN)C(=O)N[C@@H](CSSC[C@@H](C(N)=O)NC1=O)C(=O)N[C@@H](CO)C(=O)N[C@@H](Cc1cnc[nH]1)C(=O)N1CCC[C@H]1C(=O)N[C@@H](C(C)C)C(=O)N2
- IC50 [1]: > 10 µM
- IC50 [2]: > 10 µM

Reference: ChEMBL document CHEMBL4011630 (J Med Chem, 2017)
